Compound potency records, mixed from different reports. Data source: NIAID ChemDB in PubChem.

Common to all: whole-cell or culture tests; agent: HIV-1

ECn is the concentration giving n% inhibition of infection, replication or growth. Conditions beyond the fields shown may differ between rows. Two numbers with a dash give a range or band. An empty or dashed field is not shown.

structure,strain or isolate,cell line,endpoint,setting,method,changes,result
Cc1cccc(NC(=S)N[C@H](C)c2cccc3ccccc23)n1,IIIB,PBMC,EC50,-,p24,-,0.004 µM
C=C(C)[C@]12C[C@@H](COc3ccccc3)[C@@]34OC5(OC1[C@@H]3[C@@H]1O[C@]1(CO)[C@@H](O)[C@]1(O)[C@@H](Oc3ccccc3)[C@@H](C)[C@H]([C@H](C)CCCCC[C@@H]5O)[C@]14C)O2,BaL,PBMC,EC50,-,p24 / ELISA,-,0.0000425 µM
O=C(CSc1nc2ncccc2n1-c1ccc(C2CC2)c2ccccc12)Nc1ccc(C(=O)O)cc1Cl,IIIB,MT-4,EC50,-,MTT,-,≥0.22 µM
Cc1cc(S(N)(=O)=O)ccc1NC(=O)COc1ccc(Cl)cc1C(=O)c1cc(Cl)cc(C#N)c1,NNRTI-resistant (RT V106I P236L),MAGI,EC50,-,β-galactosidase,RT-V106I P236L,0.007 µM
O=C(/C=C/C=C/c1ccc(O)c(O)c1)[Se]c1ccccc1,LAI,MT-2,EC50,-,MTT,-,6.9 µM
CCCN(C)C(=O)Oc1nsnc1-c1c(Cl)ccc(OC)c1Cl,IIIB,MT-4,EC50,-,cytopathic effect / MTT,-,11 µM
O=C(/C=C/c1ccc(O)c(O)c1)[Se]c1ccccc1,LAI,MT-2,EC50,-,MTT,-,7.3 µM
CCCCCCCCN1C(=O)C(CC2=CCN(C)CC2)(CC2=CCN(C)CC2)c2ccccc21,IIIB,MT-2,EC50,-,cytopathic effect / XTT,-,4.3 µM
CCCCCCCCCCCCCCCCCCOC[C@@H](O)COP(=O)(O)C(=O)O,MN,HT4 + HT4-6C,EC50,-,plaque count,-,2.8 µM
C[C@H](COc1cc(N)nc(N)n1)OCP(=O)(O)O,Clinical isolate L6.5,CEM,EC50,-,syncytia,RT-S68G K70T V75I F77L K103N F116Y Q151M K219R,20 µg/mL
Nc1ccn([C@H]2CC[C@@H](CO)O2)c(=O)n1,HxB2-MT 65 (RT-K65R,MT-2,EC50,-,p24 / ELISA,RT-K65R,0.31 µM
Nc1ccn([C@@H]2CS[C@H](CO)O2)c(=O)n1,LAI,MT-2,EC50,-,MTT,-,3.1 µM
CC[C@H](C)[C@H](NC(=O)[C@@H]1CCCN1CC(O)[C@H](Cc1ccccc1)NC(=O)[C@H](CC(N)=O)NC(=O)OCc1ccccc1)C(=O)N[C@@H](Cc1ccccc1)C(=O)OC,IIIB,CEM,EC50,-,cytopathic effect / MTT,-,0.75 µM
CONC(=O)c1ccc(NC(=O)CSc2nc3ncccc3n2-c2ccc(C3CC3)c3ccccc23)c(Cl)c1,IIIB,MT-4,EC50,-,MTT,-,0.2 µM
O=C(O)P(=O)(O)O,BaL,Macrophage + Monocytes/macrophages,EC50,-,p24,-,5.82 µM
CC(=O)c1ccc(C)cc1NC(C(N)=O)c1c(Cl)cccc1Cl,IIIB,CEM,EC50,-,cytopathic effect / MTT,-,0.4 µM
Cc1cn([C@H]2C[C@H](N=[N+]=[N-])[C@@H](CO)O2)c(=O)[nH]c1=O,IIIB,HuT-78 + HUT 78,EC50,-,p24 / ELISA,-,0.0016 µg/mL
Nc1ncnc2c1ccn2[C@H]1CC[C@@H](CO)O1,IIIB,MT-4,EC50,-,cytopathic effect / trypan blue,-,>25 µM
CC(Sc1nc2ncccc2n1-c1ccc(C2CC2)c2ccccc12)C(=O)Nc1ccc(S(N)(=O)=O)cc1Cl,IIIB,MT-4,EC50,-,MTT,-,0.15 µM
NC(N)=NCCC[C@H](N)C(=O)NC[C@H]1O[C@H](O[C@H]2C(O)[C@@H](O[C@H]3O[C@H](CO)[C@@H](O)[C@H](NC(=O)[C@@H](N)CCCN=C(N)N)[C@H]3O)[C@H](NC(=O)[C@@H](N)CCCN=C(N)N)C[C@@H]2NC(=O)[C@@H](N)CCCN=C(N)N)[C@H](O)[C@@H](O)[C@@H]1O,NL4-3,MT-4,EC50,-,-,-,30 µM
C[C@H](CNC(=S)Nc1ccc(Cl)cn1)c1ccccc1,NNRTI-resistant (RT Y181C) A17,PBMC,EC50,-,p24,RT-Y181C,0.54 µM
O=c1[nH]cnc2c1ncn2[C@H]1CC[C@@H](CO)O1,HXB2,MT-2,EC50,-,p24 / ELISA,-,0.5 µM
O=S1(=O)NC(Cc2ccccc2)=CC(=NCCc2ccccc2)N1,IIIB,MT-4,EC50,-,MTT,-,>192 µM
Nc1ncnc2c1ncn2[C@H]1CC[C@@H](CO)O1,IIIB,MT-2,EC50,-,cytopathic effect / XTT,-,<2 µM
Cc1ccnc2c1NC(=O)c1cccnc1N2C1CC1,IIIB,MT-4,EC50,-,MTT,-,0.26 µM
CC(C)(C)NC(=O)[C@@H]1C[C@@H]2CCCC[C@@H]2CN1C[C@@H](O)[C@H](Cc1ccccc1)NC(=O)[C@H](CC(N)=O)NC(=O)c1ccc2ccccc2n1,BaL,Macrophage + Monocytes/macrophages,EC50,-,p24,-,0.02 µM
Nc1nc2c(ncn2[C@H]2CC[C@@H](CO)O2)c(=O)[nH]1,IIIB,ATH8,EC50,-,cytopathic effect / trypan blue,-,<100 µM
C[C@H](Cn1cnc2c(N)ncnc21)OCP(=O)(O)O,IIIB,CEM,EC50,-,syncytia,-,0.79 µg/mL
O=c1ccc2ccccc2[se]1,LAI,MT-2,EC50,-,MTT,-,>100 µM
Nc1nc(=O)n([C@@H]2CS[C@H](CO)O2)cc1F,RTMN(184) (RT M41L M184V T215Y),HT4 + HT4 LacZ-1,EC50,-,plaque count,RT-M41L M184V 215Y,>500 µM
Nc1ncnc2c1ccn2[C@H]1C=C[C@@H](CO)O1,IIIB,MT-4,EC50,-,cytopathic effect / trypan blue,-,205 µM
O=C(/C=C/C=C/c1ccccc1)[Se]c1ccccc1,LAI,MT-2,EC50,-,MTT,-,2.9 µM
C[C@@H](CNC(=S)Nc1ccc(Cl)cn1)c1ccccc1,NNRTI-resistant (RT Y181C K103N) A17V,PBMC,EC50,-,p24,RT-Y181C K103N,0.53 µM
Nc1nc(Br)c2ncn([C@H]3CC[C@@H](CO)O3)c2n1,IIIB,MT-2,EC50,-,cytopathic effect / trypan blue,-,<20 µM
COc1cc(NC2=NS(=O)(=O)NC(Cc3ccc4ccccc4c3)=C2)cc(OC)c1OC,IIIB,MT-4,EC50,-,MTT,-,>204 µM
CC[C@H](C)[C@H](NC(=O)[C@@H]1CCCN1C[C@H](O)[C@H](Cc1ccccc1)NC(=O)[C@H](CC(N)=O)NC(=O)OCc1ccccc1)C(=O)N[C@@H](Cc1ccccc1)C(=O)OC,IIIB,CEM,EC50,-,cytopathic effect / MTT,-,0.38 µM
CC(C)c1nc(CN(C)C(=O)N[C@H](C(=O)N[C@@H](Cc2ccccc2)C[C@H](O)[C@H](Cc2ccccc2)NC(=O)OCc2cncs2)C(C)C)cs1,LAI,PBL,EC90,-,RT activity,-,0.051 µM
CC1=C(C(=O)Nc2ccc(Cl)c(C(=O)OC(C)C)c2)SCCO1,IIIB,U-937,EC50,-,cytopathic effect / XTT,-,1.7 µM
CC(C)[C@H](NC(=O)c1ccc2ccccc2n1)C(=O)N[C@@H](Cc1ccccc1)[C@H](O)C(=O)N1CCC[C@H]1C(=O)NC(C)(C)C,RF,MT-2,EC50,-,p24,-,0.5 µM
Nc1nc(NC2CC2)c2ncn([C@H]3C=C[C@@H](CO)C3)c2n1,IIIB,MT-4,EC50,-,cytopathic effect / MTT,-,7.24 µM
C=C(C)[C@@H]1CC[C@]2(NCC[C@]3(O)CCC[C@H](S(C)(=O)=O)C3)CC[C@]3(C)[C@H](CC[C@@H]4[C@@]5(C)CC=C(C6=CC[C@](CF)(C(=O)O)CC6)C(C)(C)[C@@H]5CC[C@]43C)[C@@H]12,NL4-3,MT-2,EC50,-,luciferase,-,<0.05 µM
c1cc(CN2CCCNCCNCCCNCC2)ccc1CN1CCCNCCNCCCNCC1,-,MT-4,EC50,-,MTT,-,0.001 µg/mL
Nc1nc(F)c2ncn([C@H]3CC[C@@H](CO)O3)c2n1,BaL,MM + M/M,EC50,-,cytopathic effect / trypan blue,-,<2 µM
Cc1csc(NC(=S)NC[C@H](C)c2ccccc2)n1,NNRTI-resistant (RT Y181C) A17,PBMC,EC50,-,p24,RT-Y181C,6.85 µM
CC(C)[C@H](NC(=O)c1ccc2ccccc2n1)C(=O)N[C@@H](Cc1ccccc1)[C@H](O)C(=O)N1[C@H](C(=O)NC(C)(C)C)C[C@@H]2CCCC[C@@H]21,RF,MT-2,EC50,-,p24,-,0.057 µM
CN1CCC(CC2(CC3CCN(C)CC3)C(=O)N(c3ccccc3)c3ccccc32)CC1,RF,MT-2,EC50,-,plaque count,-,<2 µM
N#Cc1ccc(NC(=O)CSc2nc3ncccc3n2-c2ccc(C3CC3)c3ccccc23)c(Br)c1,RES056,MT-4,EC50,-,MTT,-,>2.78 µM
Cc1cn([C@H]2C[C@H](N=[N+]=[N-])[C@@H](CO)O2)c(=O)[nH]c1=O,IIIB,CEM,EC50,-,cytopathic effect / MTT,-,0.068 µM
C[C@@H](CNC(=S)Nc1ccccn1)c1ccccc1,NNRTI-resistant (RT Y181C K103N) A17V,PBMC,EC50,-,p24,RT-Y181C K103N,0.54 µM
Nc1nc(N)c2ncn([C@H]3C=C[C@@H](CO)O3)c2n1,IIIB,MT-4,EC50,-,cytopathic effect / trypan blue,-,>125 µM
CC(C)[C@H](NC(=O)COc1cccc2ccccc12)C(=O)N[C@@H](Cc1ccccc1)[C@H](O)C(=O)N1[C@H](C(=O)NC(C)(C)C)C[C@@H]2CCCC[C@@H]21,RF,MT-2,EC50,-,p24,-,0.007–0.036 µM
CCN(CC)C(=O)N1CCN(C(=O)N2CCCCC2)CC1,NL4-3,MT-4,EC50,-,MTT,-,>125 µg/mL
Clc1nc(Cl)c2[nH]cnc2n1,SW3-10125R,MT-4,EC50,-,cytopathic effect / MTT,RT M41L A62V T69SSS insertion V75V/A M184I L210W T215Y,23.17 µM
O=c1c2ccccc2n2nnc3ccc(NCCCN4CCN(CCCNc5ccc6nnn7c8ccccc8c(=O)c5c67)CC4)c1c32,CLADE C,PBL,EC50,-,p24,-,0.0064 µM
CN=C1CN=C(c2ccc[nH]2)c2cc(Cl)ccc2N1,BaL,Macrophage + Monocytes/macrophages,EC50,-,p24,-,0.09 µM
CC(C)(C)NC(=O)[C@@H]1[C@@H]2CCCC[C@@H]2CN1C(=O)[C@@H](O)[C@H](Cc1ccccc1)NC(=O)[C@H](CC(N)=O)NC(=O)c1ccc2ccccc2c1,RF,MT-2,EC90,-,p24,-,0.153 µM
O=C(NC(=S)Nc1ccc(Br)cn1)c1ccccc1[N+](=O)[O-],Clinical isolate,PBMC,EC50,"clinical isolate, multidrug-resistant",p24 / luminescence,L10I K14R L33I M36I M46I F53I K55R I62V L63P A71V G73S V82A L90M I93L,0.36 µM
O=S1(=O)NC(Cc2ccc3ccccc3c2)=CC(=NCCc2ccccc2)N1,IIIB,MT-4,EC50,-,MTT,-,>141 µM
CCOC(=O)c1ccc(NC(=O)CSc2nc3ncccc3n2-c2ccc(C3CC3)c3ccccc23)c(Br)c1,IIIB,MT-4,EC50,-,MTT,-,0.58 µM
Cc1ccc(NC(=S)NC[C@H](C)c2ccccc2)nc1,NNRTI-resistant (RT Y181C K103N) A17V,PBMC,EC50,-,p24,RT-Y181C K103N,1.84 µM
COC(=O)c1ccc(NC(=O)CSc2nc3ncccc3n2-c2ccc(C3CC3)c3ccccc23)c([N+](=O)[O-])c1,RES056,MT-4,EC50,-,MTT,-,>2.46 µM
COCCNC(=O)[C@@H](NC(=O)[C@H](Cc1ccc(OC)c(OC)c1OC)C[C@H](O)[C@H](Cc1ccccc1)NC(=O)OC(C)(C)C)C(C)C,MN,MT-2,EC90,-,RT activity,-,0.0097 µM
O=C(CSc1nc2ncccc2n1-c1ccc(C2CC2)c2ccccc12)Nc1cccnc1Cl,RES056,MT-4,EC50,-,MTT,-,>0.8 µM
Cc1csc(NC(=S)N[C@H](C)c2ccccc2)n1,IIIB,PBMC,EC50,-,p24,-,<0.001 µM
CCCN(C)C(=O)Oc1nsnc1-c1c(Cl)ccc(N)c1Cl,HE,MT-4,EC50,-,cytopathic effect / MTT,-,0.051 µM
Cc1cn([C@H]2C[C@H](N=[N+]=[N-])[C@@H](CO)O2)c(=O)[nH]c1=O,IIIB,ATH8,EC50,-,cytopathic effect / trypan blue,-,<1 µM
CN(C)C(=O)N1CCN(C(=O)N2CCCC2)CC1,NL4-3,MT-4,EC50,-,MTT,-,>125 µg/mL
O=C1c2ccccc2C(=O)N1CC(O)CN1CCC(CC2C(=O)N(c3ccccc3)c3ccccc32)CC1,IIIB,MT-2,EC50,-,cytopathic effect / XTT,-,7.9 µM
Nc1cc(OCCOCP(=O)(O)O)nc(N)n1,Clinical isolate C20,CEM,EC50,-,syncytia,RT-M41L D67N V118I M184V L210W T215Y,4.6 µg/mL
CCN(CC)C(=O)N1CCN(C(=O)N(C)CCN2CCCCC2)CC1,NL4-3,MT-4,EC50,-,MTT,-,11.2 µg/mL
Nc1ccn([C@H]2CC[C@@H](CO)O2)c(=O)n1,IIIB,MT-4,EC50,-,cytopathic effect / MTT,-,3.6 µM
Cc1ccnc2c1NC(=O)c1cccnc1N2C1CC1,BaL,Macrophage + Monocytes/macrophages,EC50,-,p24,-,0.07 µM
Cc1cn([C@H]2C[C@H](N=[N+]=[N-])[C@@H](CO)O2)c(=O)[nH]c1=O,NL4-3,MT-4,EC50,-,MTT,-,0.0007 µg/mL
C[C@H](CNC(=S)Nc1ccc(Br)cn1)c1ccccc1,IIIB,PBMC,EC50,-,p24,-,0.03 µM
CN(C)C(=O)N1CCN(C(=O)N(C)CCN2CCCCC2)CC1,NL4-3,MT-4,EC50,-,MTT,-,9.6 µg/mL
Cc1cccc(NC(=S)NC[C@H](C)c2ccccc2)n1,IIIB,PBMC,EC50,-,p24,-,0.04 µM
CN(C)c1ccc(NC2=NS(=O)(=O)NC(Cc3ccc4ccccc4c3)=C2)cc1,IIIB,MT-4,EC50,-,MTT,-,>33 µM
CS(=O)(=O)N1CCC(CC2C(=O)N(c3ccccc3)c3ccccc32)CC1,IIIB,MT-2,EC50,-,cytopathic effect / XTT,-,7.8 µM
Cc1c(N)nc(N)nc1OCCOCP(=O)(O)O,Clinical isolate DE434.4,CEM,EC50,-,syncytia,RT-K65R S68G T69I V75T Q151M,1 µg/mL
Nc1ccn([C@H]2CC[C@@H](CO)O2)c(=O)n1,RTMC (RT D67N K70R T215F K219Q),HT4 + HT4 LacZ-1,EC50,-,plaque count,RT-D67N K70R T215F K219Q,0.49 µM